Structures are written as SMILES. This is a selection; strong and weak results do not stand in their true shares. Active and inactive are the calls of the source. The call rests on the fitted dose curve; in most records, active means well fitted falling curve with a large enough effect; inconclusive means small, poorly fitted or top-dose-only effect; inactive means no such curve, though single readings can be large or run the other way.
On the % scale 0 is the no-effect control and ±100 the full control effect.

This experiment can be described thus: qHTS Assay for Inhibitors of the HIV-1 protein Vpr. Further: nearly all actives have a fitted effect of over 50% in size. The conditions noted are these: S. pombe RE007 Vpr strain, BacTiter-Glo ATP luminescence, 24 h; at 92.2 µM (top of the series).
For `CN(C(=O)Cc1ccc(Cl)c(Cl)c1)[C@H]1CCCC[C@H]1N1CCCC1`, the activity change, negative = less growth is inactive: -13.2%.

Consider `Cc1cc(C)cc(OP(C)(N)=O)c1` (configuration not stated), for which the activity change, negative = less growth is inactive: -11.9%.
